Test results from patent publication US6608027B1, “Macrocyclic peptides active against the hepatitis C virus” (Boehringer Ingelheim (Canada) Ltd, priority 1999, dated 2003).

Amino acid sequences for entries named in this document (tags omitted). Residues count along the entry.
UniProt P26663, 1027-1657 limits assumed: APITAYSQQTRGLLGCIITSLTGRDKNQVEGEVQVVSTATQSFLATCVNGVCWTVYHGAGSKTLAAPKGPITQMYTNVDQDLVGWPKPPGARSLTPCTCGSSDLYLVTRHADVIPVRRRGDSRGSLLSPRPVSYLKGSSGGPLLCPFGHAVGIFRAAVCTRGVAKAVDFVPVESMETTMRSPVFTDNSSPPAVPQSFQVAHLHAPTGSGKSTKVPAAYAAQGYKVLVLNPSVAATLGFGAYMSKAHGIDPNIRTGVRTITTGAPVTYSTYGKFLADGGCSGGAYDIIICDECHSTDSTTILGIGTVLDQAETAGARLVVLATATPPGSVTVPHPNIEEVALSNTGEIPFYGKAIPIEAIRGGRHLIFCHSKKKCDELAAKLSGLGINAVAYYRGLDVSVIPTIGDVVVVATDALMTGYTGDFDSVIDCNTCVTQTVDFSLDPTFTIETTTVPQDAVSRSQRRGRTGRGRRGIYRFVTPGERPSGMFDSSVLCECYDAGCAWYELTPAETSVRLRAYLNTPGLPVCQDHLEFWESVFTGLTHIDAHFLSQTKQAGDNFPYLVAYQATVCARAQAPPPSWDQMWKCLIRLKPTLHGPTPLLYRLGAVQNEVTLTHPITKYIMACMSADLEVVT
UniProt P26663, 1658-1711 partner limits assumed: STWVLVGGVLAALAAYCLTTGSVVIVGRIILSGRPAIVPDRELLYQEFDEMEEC
UniProt P26663, 1027-1208 limits assumed: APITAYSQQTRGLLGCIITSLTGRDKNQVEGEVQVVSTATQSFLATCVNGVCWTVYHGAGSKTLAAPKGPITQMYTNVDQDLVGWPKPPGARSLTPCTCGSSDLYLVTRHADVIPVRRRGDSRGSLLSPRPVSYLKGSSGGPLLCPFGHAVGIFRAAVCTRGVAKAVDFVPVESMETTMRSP

target: His-NS3-NS4AFL (full-length NS3-NS4A protein complex) (Hepatitis C virus genotype 1b, UniProt P26663); assay: Full-length NS3-NS4A heterodimer protein fluorogenic assay; settings: read-out: enzyme activity (IC50 grade); fluorogenic assay of Example 48; no asterisk
Text: The NS2-NS5B-3′non coding region was cloned by RT-PCR into the pCR®3 vector (Invitrogen) using RNA extracted from the serum of an HCV genotype 1b infected individual (provided by Dr. Bernard Willems, Hôpital St-Luc, Montréal, Québec, Canada). The NS3-NS4A region (NS3-NS4AFL) was then subcloned by PCR into the pFastBac™ HTa baculovirus expression vector (Gibco/BRL). The vector sequence includes a region encoding a 28-residue N-terminal sequence which contains a hexahistidine tag. The Bac-to-Bac™ baculovirus expression system (Gibco/BRL) was used to produce the recombinant baculovirus. His-NS3-NS4AFL was expressed by infecting 10^6 Sf21 cells/mL with the recombinant baculovirus at a multiplicity of infection of 0.1-0.2 at 27°. Authentic auto-proteolysis occurs during expression to produce a non covalent and stable NS3-NS4A protein complex (referred to as full-length “FL”). The infected culture was harvested 48 to 64 h later by centrifugation at 4°. The cell pellet was homogenized in 50 mM NaPO4, pH 7.5, 40% glycerol (w/v), 2 mM β-mercaptoethanol, in presence of a cocktail of protease inhibitors. His-NS3-NS4AFL was then extracted from the cell lysate with 1.5% NP-40, 0.5% Triton X-100, 0.5M NaCl, and a DNase treatment. After ultracentrifugation, the soluble extract was diluted 4-fold and bound on a Pharmacia Hi-Trap Ni-chelating column. The His-NS3-NS4AFL was eluted in a >90% pure form (as judged by SDS-PAGE), using a 50 to 400 mM imidazole gradient. The His-NS3-NS4AFL was stored at −80° in 50 mM sodium phosphate, pH 7.5, 10% (w/v) glycerol, 0.5 M NaCl, 0.25 M imidazole, 0.1% NP-40. It was thawed on ice and diluted just prior to use.
The protease activity of His-NS3-NS4AFL was assayed in 50 mM Tris-HCl, pH 8.0, 0.25 M sodium citrate, 0.01% (w/v) n-dodecyl-β-D-maltoside, 1 mM TCEP. Five (5) μM of the internally quenched substrate anthranilyl-DDIVPAbu[C(O)—O]-AMY(3-NO2)TW-OH (SEQ. ID NO.: 1) in presence of various concentrations of inhibitor were incubated with 1.5 nM of His-NS3-NS4AFL for 45 min at 23°. […] The reaction was terminated with the addition of 1M MES, pH 5.8. Fluorescence of the N-terminal product was monitored on a Perkin-Elmer LS-50B fluorometer equipped with a 96-well plate reader (excitation wavelength: 325 nm, emission wavelength: 423 nm).
The % inhibition was calculated with the following equation:
100−[(fluoinh−fluoblank)/(fluoctl−fluoblank)×100]
A non-linear curve fit with the Hill model was applied to the inhibition-concentration data, and the 50% effective concentration (IC50) was calculated by the use of SAS software (Statistical Software System; SAS Institute, Inc. Cary, N.C.).

Compound | IC50 [nM]
COc1ccc2c(O[C@@H]3C[C@H]4C(=O)N[C@]5(C(=O)O)CC5CCCCNCC[C@H](NC(=O)OC(C)(C)C)C(=O)N4C3)cc(-c3ccccc3)nc2c1 (stereo partly drawn) | < 100
COc1ccc2c(O[C@@H]3C[C@H]4C(=O)N[C@]5(C(=O)O)C[C@@H]5/C=C\CCC(=O)CC[C@H](NC(=O)OC(C)(C)C)C(=O)N4C3)cc(-c3ccccc3)nc2c1 | < 100
COc1ccc2c(O[C@@H]3C[C@H]4C(=O)N[C@]5(C(=O)O)CC5CCN(C(=O)c5ccccc5)CCCC[C@H](NC(=O)OC(C)(C)C)C(=O)N4C3)cc(-c3ccccc3)nc2c1 (stereo partly drawn) | 100 to 1000
COc1ccc2c(O[C@@H]3C[C@H]4C(=O)N[C@]5(C(=O)O)CC5CCNCCCC[C@H](NC(=O)OC(C)(C)C)C(=O)N4C3)cc(-c3ccccc3)nc2c1 (stereo partly drawn) | > 1000
COc1ccc2c(O[C@@H]3C[C@H]4C(=O)N[C@]5(C(=O)O)CC5CCN(C(C)=O)CCCC[C@H](NC(=O)OC(C)(C)C)C(=O)N4C3)cc(-c3ccccc3)nc2c1 (stereo partly drawn) | 100 to 1000
COc1ccc2c(O[C@@H]3C[C@H]4C(=O)N[C@]5(C(=O)O)C[C@H]5CC/C=C/CO[C@@H](C)[C@H](NC(=O)OC(C)(C)C)C(=O)N4C3)cc(-c3ccccc3)nc2c1 | < 100
COc1ccc2c(O[C@@H]3C[C@H]4C(=O)N[C@]5(C(=O)O)C[C@H]5/C=C\CCC(=O)CC[C@H](NC(=O)OC(C)(C)C)C(=O)N4C3)cc(-c3ccccc3)nc2c1 | < 100
COc1ccc2c(O[C@@H]3C[C@H]4C(=O)N[C@]5(C(=O)O)C[C@H]5CCCCCC[C@H](NC(=O)OC(C)(C)C)C(=O)N4C3)cc(-c3ccccc3)nc2c1 | < 100
COc1ccc2c(O[C@@H]3C[C@H]4C(=O)N[C@]5(C(=O)O)CC5CCCCCO[C@@H](C)[C@H](NC(=O)OC(C)(C)C)C(=O)N4C3)cc(-c3ccccc3)nc2c1 (stereo partly drawn) | < 100
COc1ccc2c(O[C@@H]3C[C@H]4C(=O)N[C@]5(C(=O)O)CC5CCCCCCC[C@H](NC(=O)OC(C)(C)C)C(=O)N4C3)cc(-c3ccccc3)nc2c1 (stereo partly drawn) | < 100
COc1ccc2c(O[C@@H]3C[C@H]4C(=O)N[C@]5(C(=O)O)CC5CC/C=C\CO[C@@H](C)[C@H](NC(=O)OC(C)(C)C)C(=O)N4C3)cc(-c3ccccc3)nc2c1 (stereo partly drawn) | 100 to 1000
COc1ccc2c(O[C@@H]3C[C@H]4C(=O)N[C@]5(C(=O)O)C[C@H]5CCCCCOC[C@H](NC(=O)OC(C)(C)C)C(=O)N4C3)cc(-c3ccccc3)nc2c1 | < 100
COc1ccc2c(O[C@@H]3C[C@H]4C(=O)N[C@]5(C(=O)O)CC5CCCOCCC[C@H](NC(=O)OC(C)(C)C)C(=O)N4C3)cc(-c3ccccc3)nc2c1 (stereo partly drawn) | < 100

target: HCV NS3 protease type 1b (Hepatitis C virus genotype 1b, UniProt P26663); assay: Recombinant HCV NS3 protease radiometric assay; settings: read-out: enzyme activity (IC50 grade), asterisk; asterisk (*) = radiometric assay of Example 49
Procedure: The substrate used for the HCV NS3 protease radiometric assay, DDIVPC-SMSYTW (SEQ. ID NO.: 2), is cleaved between the cysteine and the serine residues by the enzyme. The sequence DDIVPC-SMSYTW (SEQ. ID NO.: 2) corresponds to the NS5A/NS5B natural cleavage site in which the cysteine residue in P2 has been substituted for a proline. The peptide substrate DDIVPC-SMSYTW (SEQ. ID NO.: 2) and the tracer biotin-DDIVPC-SMS[^125I-Y]TW (SEQ. ID NO.: 3) were incubated with the recombinant NS3 protease in the absence or in the presence of inhibitors. The separation of substrate from products was performed by adding avidin-coated agarose beads to the assay mixture followed by filtration. The amount of SMS[^125I-Y]TW (SEQ. ID NO.: 4) product found in the filtrate (with or without inhibitor) allowed for the calculation of the percentage of substrate conversion and of the percentage of inhibition.
Assay buffer: 50 mM Tris-HCl, pH 7.5, 30% (w/v) glycerol, 2% (w/ v) CHAPS, 1 mg/mL BSA, 1 mM TCEP (TCEP added just prior to use from a 1 M stock solution in water).
Substrate: DDIVPC-SMSYTW (SEQ. ID NO.: 2), 25 μM final concentration (from a 2 mM stock solution in DMSO stored at −20° C. to avoid oxidation). […]
The filtrates were counted on a Packard® TopCount instrument using a ^125I-liquid protocol for 1 minute. The %inhibition was calculated with the following equation: […]

Compound | IC50 [nM]
COc1ccc2c(OC3CC4C(=O)NC5(C(=O)O)CC5C=CCCCCC(NC(=O)OC(C)(C)C)C(=O)N4C3)cc(-c3ccccc3)nc2c1 (stereo not drawn) | > 1000
COc1ccc2c(O[C@@H]3C[C@H]4C(=O)N[C@]5(C(=O)O)C[C@@H]5CCCCCC[C@H](NC(=O)OC(C)(C)C)C(=O)N4C3)cc(-c3ccccc3)nc2c1 | > 1000
